Values of other authors in patent US20230127499A1, “PEPTIDES AND ADJUVANTS FOR AU[…] […] FOR CORONAVIRUS” (FIGENE, LLC, priority 2020, published 2023).

Tested on: patients
Conditions: administered systemically as a cancer therapeutic; some patients; cited from earlier work

## TNF-alpha
  adverse effects: ARDS-type pathology
